PubChem BioAssay AID1259414, Drosophila RNAi Screening Center – 2018
In all, the deposit lists about 24,000 reagents; below is a random part of those that have a named target and a result. Of all reagents, about 1,210 (5%) are marked active. 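Inactive calls also include excluded dsRNAs with several or no targets, genes unexpressed in JW18, and well A1, regardless of score.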 Reagents against one gene are numbered here. Names joined by + are all predicted targets of the reagent.

- Screen: 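Fly genes that alter Wolbachia amount inside host cells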 (primary screen)
- Cells: Drosophila JW18 cells infected with Wolbachia
- Reagent: long dsRNA against Drosophila genes, 0.25 µg dsRNA per well of a 384-well plate
- Timing: 5 days
- Treatment: cells persistently infected with Wolbachia before knock-down; no added drug
- Read-out: 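Automated imaging of bacterial rRNA staining divided by host cell count, reported as plate-normalised robust z-score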
- Reading the numbers: Wolbachia per cell robust z: higher = more Wolbachia per host cell than the plate typical
- Active means: 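Hit when robust z is 1.5 or more, or -1.5 or less, in at least two of three replicates; excludes dsRNAs with several or no targets, genes not expressed in JW18 and well A1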

| Gene | dsRNA no. | Wolbachia per cell robust z, rep 1 | Wolbachia per cell robust z, rep 2 | Wolbachia per cell robust z, rep 3 | outcome |
| --- | --- | --- | --- | --- | --- |
| DIP-beta (Dpr-interacting protein beta) | 1 | -1.28 | 0.16 | -0.127 | inactive |
| DIP-beta (Dpr-interacting protein beta) | 2 | -1.67 | 0.148 | -1.67 | inactive |
| DIP-beta (Dpr-interacting protein beta) | 3 | -0.306 | 0.0179 | -0.339 | inactive |
| DIP-beta (Dpr-interacting protein beta) | 4 | 0.613 | -0.398 | 0.617 | inactive |
| Fpps (Farnesyl pyrophosphate synthase) | 1 | 0.266 | 1.67 | -0.978 | inactive |
| ppk25 (pickpocket 25) | 1 | -0.173 | -0.788 | -7.43 | inactive |
| ppk25 (pickpocket 25) | 2 | 0.265 | 0.13 | 0.699 | inactive |
| Sugb (Sugar baby) | 1 | -0.915 | -8.76 | 0.665 | inactive |
| CG42661 + Tsp66A + CG42660 | 1 | -2.52 | -1.25 | -7.23 | inactive |
| Ir75a (Ionotropic receptor 75a) | 1 | -0.708 | -0.565 | 0.568 | inactive |
| CG17721 | 1 | -0.0115 | 0.274 | 0.714 | inactive |
| t-Grip91 (testis-specific gamma-tubulin ring protein 91) | 1 | -1.19 | -1.61 | -1.31 | inactive |
| AlaRS-m (Alanyl-tRNA synthetase, mitochondrial) | 1 | 0.996 | 0.0556 | -0.226 | inactive |
| AlaRS-m (Alanyl-tRNA synthetase, mitochondrial) | 2 | -0.0937 | 0.231 | 0.666 | inactive |
| CG31183 | 1 | 0.943 | 0.564 | 1.43 | inactive |
| CG31183 | 2 | 0.0132 | -0.635 | 0.000324 | inactive |
| CG43318 | 1 | -0.92 | 0.816 | -0.124 | inactive |
| l(3)neo38 (lethal (3) neo38) | 1 | 0.459 | 0.215 | 0.755 | inactive |
| l(3)neo38 (lethal (3) neo38) | 2 | 0.64 | -0.912 | -4.65 | inactive |
| l(3)neo38 (lethal (3) neo38) | 3 | 1.11 | -7.89 | 2.16 | inactive |
| l(3)neo38 (lethal (3) neo38) | 4 | 0.121 | -0.271 | -0.622 | inactive |
| l(3)neo38 (lethal (3) neo38) | 5 | 0.939 | 1.45 | 1.1 | inactive |
| p38c (p38c MAP kinase) | 1 | -0.905 | -0.827 | -0.378 | inactive |
| CG18789 | 1 | -5.91 | -5.14 | -0.474 | inactive |
| CG13654 | 1 | 0.712 | 0.5 | 0.526 | inactive |
| Or33a (Odorant receptor 33a) | 1 | -0.365 | 0.747 | 0.00552 | inactive |
| CG9673 | 1 | -1.69 | -0.663 | -0.317 | inactive |
| E(z) (Enhancer of zeste) | 1 | -0.363 | 0.945 | 1.8 | inactive |
| E(z) (Enhancer of zeste) | 2 | 0.389 | 0.371 | 0.345 | inactive |
| PGRP-SA (Peptidoglycan recognition protein SA) | 1 | 0.589 | 0.204 | -0.238 | inactive |
| ATPsynbetaL (ATP synthase, beta subunit-like) | 1 | 0.916 | -0.336 | 0.252 | inactive |
| ATPsynbetaL (ATP synthase, beta subunit-like) | 2 | -0.836 | 1.24 | -1.19 | inactive |
| Torsin | 1 | -0.967 | 0.318 | 0.693 | inactive |
| unc-4 | 1 | 0.693 | 0.716 | -2.11 | inactive |
| unc-4 | 2 | -1.2 | 0.24 | 0.682 | inactive |
| unc-4 | 3 | -2.58 | -0.497 | -0.635 | inactive |
| CG14958 | 1 | 0.456 | 1.37 | 1.82 | inactive |
| IleRS-m (Isoleucyl-tRNA synthetase, mitochondrial) | 1 | -0.394 | 0.00837 | 0.123 | inactive |
| Dbp21E2 (DEAD box protein 21E2) | 1 | -0.14 | -7.77 | 0.187 | inactive |
| Dbp21E2 (DEAD box protein 21E2) | 2 | -0.0739 | -0.816 | -0.6 | inactive |
| CG2993 | 1 | -0.0743 | -1.92 | 0.142 | inactive |
| CG2993 | 2 | 0.207 | 0.284 | 0.0141 | inactive |
| CG2993 | 3 | 0.331 | 0.372 | -3.24 | inactive |
| homer | 1 | 0.563 | -0.0304 | 0.482 | inactive |
| homer | 2 | -0.777 | -2.39 | -1.26 | inactive |
| CG17191 | 1 | -4.67 | 0.43 | 1.1 | inactive |
| CG17191 | 2 | -0.975 | -1.37 | -0.367 | inactive |
| CG3328 | 1 | -1.12 | -0.617 | -1.64 | inactive |
| CG3328 | 2 | 0.113 | -0.604 | 0.471 | inactive |
| Arr1 (Arrestin 1) | 1 | 2.06 | 0.376 | 0.994 | inactive |
| CG31693 | 1 | -0.372 | -8.81 | 0.00361 | inactive |
| BRWD3 | 1 | -0.218 | -9.88 | -0.709 | inactive |
| BRWD3 | 2 | 1.25 | -1.86 | 1.41 | inactive |
| Pex6 + Hao | 1 | -0.278 | -0.0219 | -0.669 | inactive |
| Sfp33A2 (Seminal fluid protein 33A2) | 1 | -0.106 | -0.693 | -0.801 | inactive |
| Ilp3 (Insulin-like peptide 3) | 1 | 0.36 | -0.801 | 0.38 | inactive |
| ewg (erect wing) | 1 | -0.906 | -5.51 | -0.493 | inactive |
| ewg (erect wing) | 2 | -0.119 | -0.738 | -1.89 | inactive |
| NK7.1 | 1 | 0.285 | -0.236 | 0.409 | inactive |
| CG4815 | 1 | 2.3 | -0.236 | -0.477 | inactive |
| Spt (Spitting Image) | 1 | -0.0309 | -0.276 | 0.476 | inactive |
| Spt (Spitting Image) | 2 | 0.0129 | -0.203 | -0.277 | inactive |
| Cad96Ca (Cadherin 96Ca) | 1 | 0.692 | -2.03 | -0.212 | inactive |
| Cad96Ca (Cadherin 96Ca) | 2 | 0.918 | 0.218 | -0.198 | inactive |
| CG13248 | 1 | -4.58 | -0.275 | -1.73 | active |
| CG13248 | 2 | 0.138 | 0.422 | -0.445 | inactive |
| cv-c (crossveinless c) | 1 | -5.82 | -0.821 | 0.76 | inactive |
| cv-c (crossveinless c) | 2 | -0.828 | -0.742 | -0.0464 | inactive |
| cv-c (crossveinless c) | 3 | -2.39 | 0.2 | -0.306 | inactive |
| cv-c (crossveinless c) | 4 | 0.563 | 0.113 | 1.38 | inactive |
| cv-c (crossveinless c) | 5 | 0.267 | 0.197 | -0.16 | inactive |
| cv-c (crossveinless c) | 6 | 1 | -1.19 | 2.45 | inactive |
| cv-c (crossveinless c) | 7 | 0.37 | -0.111 | -0.892 | inactive |
| cv-c (crossveinless c) | 8 | 0.205 | -2.29 | -0.333 | inactive |

11 neighbouring reagents from above, for reference:
| Gene | dsRNA no. | Wolbachia per cell robust z, rep 1 | Wolbachia per cell robust z, rep 2 | Wolbachia per cell robust z, rep 3 | outcome |
| --- | --- | --- | --- | --- | --- |
| CG31183 | 1 | 0.943 | 0.564 | 1.43 | inactive |
| CG31183 | 2 | 0.0132 | -0.635 | 0.000324 | inactive |
| CG43318 | 1 | -0.92 | 0.816 | -0.124 | inactive |
| l(3)neo38 (lethal (3) neo38) | 1 | 0.459 | 0.215 | 0.755 | inactive |
| l(3)neo38 (lethal (3) neo38) | 2 | 0.64 | -0.912 | -4.65 | inactive |
| l(3)neo38 (lethal (3) neo38) | 3 | 1.11 | -7.89 | 2.16 | inactive |
| l(3)neo38 (lethal (3) neo38) | 4 | 0.121 | -0.271 | -0.622 | inactive |
| l(3)neo38 (lethal (3) neo38) | 5 | 0.939 | 1.45 | 1.1 | inactive |
| p38c (p38c MAP kinase) | 1 | -0.905 | -0.827 | -0.378 | inactive |
| CG18789 | 1 | -5.91 | -5.14 | -0.474 | inactive |
| CG13654 | 1 | 0.712 | 0.5 | 0.526 | inactive |
